Anti-infective test results gathered from many reports (values: NIAID ChemDB through PubChem).

Common to all: growth or infection tests; organism: Candida albicans; read-out: MIC

Blank or dashed fields: not listed here. Lines come from different laboratories, so protocols vary.

structure	strain or isolate	method	result
CCCCCCCCOc1ccc(N2CCN(c3ccc(C(=O)N[C@H]4CCCNC(=O)[C@@H]5C[C@H](N=C(N)N)CN5C(=O)[C@H](CCN)NC(=O)[C@H](CCc5ccc(O)cc5)NC(=O)[C@@H]5C[C@@H](O)CN5C(=O)[C@H]([C@@H](C)O)NC4=O)cc3)CC2)cc1	ATCC 62376	-	0.78 µg/mL
CCn1c(-c2cc3ccccc3cc2C(=O)OC)n[nH]c1=S	ATCC 2091	-	250 µg/mL
COc1cc(C=NNC(=O)c2cnc3c(ccc4[nH]c(Cl)cc(C)c43)c2=O)ccc1O	-	broth dilution	250 µg/mL
CC(C)C1=CC2CC3(C=O)C4CC[C@@H](C)C4CC2(CCOC(=O)CC(C)(C)C)C13C(=O)O	-	-	0.06 µg/mL
CCCCCCCCOc1ccc(N2CCN(c3ccc(C(=O)N[C@H]4CCCNC(=O)[C@@H]5C[C@H](N)CN5C(=O)[C@H](CCN)NC(=O)[C@H](CCc5ccc(O)cc5)NC(=O)[C@@H]5C[C@@H](O)CN5C(=O)[C@H]([C@@H](C)O)NC4=O)cc3)CC2)cc1	ATCC 38247	-	0.39 µg/mL
Oc1cc2ccccc2cc1-c1nnc(NC2CCCCC2)s1	ATCC 2091	-	250 µg/mL
Cc1cc(Cl)[nH]c2ccc3c(=O)c(C(=O)NN4C(=O)C(Cl)C4c4cccc([N+](=O)[O-])c4O)cnc3c12	-	broth dilution	500 µg/mL
CC(C)CCC(O)C12C[C@@H]3[C@H](C)CC[C@H]3C3(C=O)CC1C=C(C(C)C)[C@@]23C(=O)O	-	-	>128 µg/mL
CCCCCOc1ccc(-c2ccc(-c3ccc(C(=O)N[C@H]4CCCNC(=O)[C@@H]5C[C@H](N)CN5C(=O)[C@H](CCC(=O)O)NC(=O)C(CCc5ccc(O)cc5)NC(=O)[C@@H]5C[C@@H](O)CN5C(=O)[C@H]([C@@H](C)O)NC4=O)cc3)cc2)cc1	ATCC 38247	-	1.56 µg/mL
CCN1CCN(C(=S)Nc2nc(N3CCN(CC)CC3)c3ccccc3n2)CC1	MTCC 183	agar / visual reading	6.25 µg/mL
CC[C@H]1OC(=O)C[C@@H](O)[C@H](C)[C@@H](OC2OC(C)C(O)C(N(C)C)C2O)[C@@H](CCN2CC(C)CC(C)C2)C[C@@H](C)C(=O)/C=C/C=C/[C@@H]1CSc1ccccc1	-	-	0.312 µg/mL
Clc1ccc(CNc2ccccc2Cn2ccnc2)cc1	CDC385	-	0.18 µg/mL
CC[C@H]1OC(=O)C[C@@H](O)[C@H](C)[C@@H](OC2OC(C)C(O)C(N(C)C)C2O)[C@@H](CCN2CC(C)CC(C)C2)C[C@@H](C)C(=O)/C=C/C=C/[C@@H]1COC1CCOCC1	-	-	1.25 µg/mL
CC(C)C1=CC2CC3(C=O)[C@@H]4CC[C@@H](C)[C@H]4CC2(C(O)CC2CCCCC2)[C@]13C(=O)O	-	-	0.5 µg/mL
N=C(N)c1ccc2[nH]c(-c3cc4cc(C(=N)N)ccc4o3)cc2c1	-	-	10 µg/mL
O=[n+]1c(Sc2ccccc2)c(CBr)n([O-])c2ccccc21	Clinical isolate 3	-	62.5 µg/mL
C[C@@H](O)[C@@H]1NC(=O)[C@H](CCc2ccc(O)cc2)NC(=O)[C@@H]2C[C@@H](O)CN2C(=O)[C@H]([C@@H](C)O)NC(=O)[C@@H](NC(=O)c2ccc(N3CCN(c4ccc(O)cc4)CC3)cc2)CCCNC(=O)[C@@H]2C[C@H](N)CN2C1=O	ATCC 62376	-	25 µg/mL
COC1CC2CCC(C)C(O)(O2)C(=O)C(=O)N2CCCCC2C(=O)OC(C(C)CC2CCC(O)C(OC)C2)CC(=O)C(C)/C=C(\C)C(O)[C@@](OC)(N(O)C(=O)OCC(C)C)C(=O)C(C)CC(C)/C=C/C=C/C=C/1C	WILD TYPE	-	>100 µg/mL
CN(CCCC#CC(C)(C)C)c1cccc2c1CCC(=O)N2	Clinical isolate 2	-	15.6 µg/mL
CCNc1nnc(-c2cc3ccccc3cc2O)s1	ATCC 2091	-	125 µg/mL
C[C@@H](O)[C@@H]1NC(=O)[C@H](CCc2ccc(O)cc2)NC(=O)[C@@H]2C[C@@H](O)CN2C(=O)[C@H]([C@@H](C)O)NC(=O)[C@@H](NC(=O)c2ccc(N3CCNCC3)cc2)CCCNC(=O)[C@@H]2C[C@H](N)CN2C1=O	ATCC 62376	-	>100 µg/mL
Oc1cc2ccccc2cc1-c1n[nH]c(=S)n1C1CCCCC1	ATCC 2091	-	250 µg/mL
CC(C)C1=CC2CC3(C=O)[C@@H]4CC[C@@H](C)[C@H]4CC2(C(O)CCC2CCCCC2)[C@]13C(=O)O	-	-	0.5 µg/mL
COc1cc(CN2C=Cc3cc(OC)c(OC)c4nccc2c34)cc(OC)c1OC	-	-	>64 µg/mL
Cc1ccc(NC(=S)Nc2nc(N3CCN(c4ccccc4)CC3)c3ccccc3n2)cc1	MTCC 183	agar / visual reading	12.5 µg/mL
CCCCCOc1ccc(-c2ccc(-c3ccc(C(=O)N[C@H]4CCCNC(=O)[C@@H]5C[C@H](NC(=O)C[N+](C)(C)C)CN5C(=O)[C@H]([C@@H](C)O)NC(=O)[C@H](CCc5ccc(O)cc5)NC(=O)[C@@H]5C[C@@H](O)CN5C(=O)[C@H]([C@@H](C)O)NC4=O)cc3)cc2)cc1	ATCC 10231	-	1.56 µg/mL
COc1ccc(CN2C=Cc3cc(OC)c(OC)c4nccc2c34)cc1	-	-	>64 µg/mL
Oc1cc2ccccc2cc1-c1n[nH]c(=S)n1-c1ccc(F)cc1	ATCC 2091	-	250 µg/mL
CCN1CCN(c2nc(NN=C3SCC(=O)N3c3cccc(Cl)c3)nc3ccccc23)CC1	MTCC 183	agar / visual reading	400 µg/mL
CCNC(=S)NNC(=O)c1cc2ccccc2cc1O	ATCC 2091	-	250 µg/mL
CCCCCCCOc1ccc(N2CCN(c3ccc(C(=O)N[C@H]4CCCNC(=O)[C@@H]5C[C@H](N)CN5C(=O)[C@H]([C@@H](C)O)NC(=O)[C@H](CCc5ccc(CO)cc5)NC(=O)[C@@H]5CCCN5C(=O)[C@H]([C@@H](C)O)NC4=O)cc3)CC2)cc1	ATCC 62376	-	1.56 µg/mL
CCCCCOc1ccc(-c2ccc(-c3ccc(C(=O)N[C@H]4CCCNC(=O)[C@@H]5C[C@H](N)CN5C(=O)[C@H](CCCN)NC(=O)[C@H](CCc5ccc(O)cc5)NC(=O)[C@@H]5C[C@@H](O)CN5C(=O)[C@H]([C@@H](C)O)NC4=O)cc3)cc2)cc1	ATCC 38247	-	0.39 µg/mL
CCN1CCN(c2nc(NC(=S)N3CCN(C)CC3)nc3ccccc23)CC1	MTCC 183	agar / visual reading	25 µg/mL
COc1ccc(C=NNC(=O)c2cnc3c(ccc4[nH]c(Cl)cc(C)c43)c2=O)cc1	-	broth dilution	500 µg/mL
CC(C)(C)OC(=O)N1CCC(Br)(C(=O)O)CC1	ATCC10259	-	100 µg/mL
Cc1cc(Cl)[nH]c2ccc3c(=O)c(C(=O)NN=Cc4ccc(Cl)cc4)cnc3c12	-	broth dilution	500 µg/mL
N=C(N)c1ccc(/C=C/c2cc3cc(C(=N)N)ccc3o2)cc1	-	-	30 µg/mL
O=[N+]([O-])c1ccccc1Cn1ccnc1	CDC385	-	100 µg/mL
C(=C\c1cc2ccc(C3=NCCN3)cc2[nH]1)/c1cc2ccc(C3=NCCN3)cc2[nH]1	-	-	>60 µg/mL
C(/C=C/c1ccccc1)=Nc1ccccc1Cn1ccnc1	CDC385	-	100 µg/mL
CCN1CCN(c2nc(NN=C3SCC(=O)N3c3ccccc3F)nc3ccccc23)CC1	MTCC 183	agar / visual reading	3.12 µg/mL
COc1ccc(C[C@H](N)C(=O)N[C@H]2[C@@H](O)[C@H](n3cnc4c(N)ncnc43)O[C@@H]2C(=O)O)cc1	FP-620	-	0.2 µg/mL
C(=C\c1ccccc1)/CNc1ccc(Cn2ccnc2)cc1	CDC385	-	50 µg/mL
CCC(C)CC(C)CCCCCCCCC(=O)N[C@H]1C[C@@H](O)[C@H](NCCN)NC(=O)[C@@H]2[C@@H](O)CCN2C(=O)[C@H]([C@H](O)CCN)NC(=O)[C@H]([C@H](O)[C@@H](O)c2ccc(O)cc2)NC(=O)[C@@H]2C[C@@H](O)CN2C(=O)[C@H]([C@@H](C)O)NC1=O	B311	-	0.125 µg/mL
Cc1c(Cl)[n+](=O)c2cc(Cl)ccc2n1[O-]	Clinical isolate 6	-	31.25 µg/mL
CC1C=C(C(=O)O)CCC1	ATCC10259	-	500 µg/mL
c1cc(C2=NCCN2)ccc1Oc1ccc(-c2cc3ccc(C4=NCCN4)cc3[nH]2)cc1	-	-	3 µg/mL
CCCCCOc1ccc(-c2ccc(-c3ccc(C(=O)N[C@H]4CCCNC(=O)[C@@H]5C[C@H](NCc6ccccc6)CN5C(=O)[C@H]([C@@H](C)O)NC(=O)[C@H](CCc5ccc(O)cc5)NC(=O)[C@@H]5C[C@@H](O)CN5C(=O)[C@H]([C@@H](C)O)NC4=O)cc3)cc2)cc1	ATCC 10231	-	0.78 µg/mL
CC[C@H]1OC(=O)C[C@@H](O)[C@H](C)[C@@H](OC2OC(C)C(O)C(N(C)C)C2O)[C@@H](CCN2CC(C)CC(C)C2)C[C@@H](C)C(=O)/C=C/C=C/[C@@H]1CNN1CCC2CCCCC21	-	-	0.625 µg/mL
C(=C\c1ccccc1)/CNc1ccccc1Cn1ccnc1	CDC385	-	0.75 µg/mL
S=C(Nc1ccc(Cl)cc1)Nc1nc(N2CCN(c3ccccc3)CC2)c2ccccc2n1	MTCC 183	agar / visual reading	6.25 µg/mL
C(=C\c1ccccc1)/CNc1cccc(Cn2ccnc2)c1	CDC385	-	>100 µg/mL
O=C(O)C1=CCCCCC1	ATCC10259	-	200 µg/mL
CN1CCN(Cc2ccc(N=C/C=C/c3ccccc3)cc2)CC1	CDC385	-	>100 µg/mL
COC1CC2CCC(C)C(O)(O2)C(=O)C(=O)N2CCCCC2C(=O)OC(C(C)CC2CCC(O)C(OC)C2)CC(=O)C(C)/C=C(\C)C(O)C(OC)C(=O)C(C)C[C@](C)(N(O)C(=O)NN2CCCCC2)/C=C/C=C/C=C/1C	TOR1-1/TOR1	-	>100 µg/mL
C/C=C(/C(=O)O)c1ccccc1	ATCC10259	-	100 µg/mL
Cc1c(S(=O)(=O)c2ccccc2)[n+](=O)c2ccccc2n1[O-]	Clinical isolate 21	-	15.6 µg/mL
CC[C@H]1OC(=O)C[C@@H](O)[C@H](C)[C@@H](OC2OC(C)C(O)C(N(C)C)C2O)[C@@H](CCN2CC(C)CC(C)C2)C[C@@H](C)C(=O)/C=C/C=C/[C@@H]1CSc1ccccn1	-	-	2.5 µg/mL
CC(C)CCCCC(O)C12C[C@@H]3[C@H](C)CC[C@H]3C3(C=O)CC1C=C(C(C)C)[C@@]23C(=O)O	-	-	0.5 µg/mL
CCCCCOc1ccc(-c2ccc(-c3ccc(C(=O)N[C@H]4CCCNC(=O)[C@@H]5C[C@H](N)CN5C(=O)[C@H](CC)NC(=O)[C@H](CCc5ccc(O)cc5)NC(=O)[C@@H]5C[C@@H](O)CN5C(=O)[C@H]([C@@H](C)O)NC4=O)cc3)cc2)cc1	ATCC 38247	-	0.39 µg/mL
CCN1CCN(c2nc(Nc3ccc(C(=O)/C=C/c4ccccc4O)cc3)nc3ccccc23)CC1	MTCC 183	agar / visual reading	200 µg/mL

A second listing of 4 rows from above:

structure	strain or isolate	method	result
CN1CCN(Cc2ccc(N=C/C=C/c3ccccc3)cc2)CC1	CDC385	-	>100 µg/mL
Cc1cc(Cl)[nH]c2ccc3c(=O)c(C(=O)NN4C(=O)C(Cl)C4c4cccc([N+](=O)[O-])c4O)cnc3c12	-	broth dilution	500 µg/mL
CCNc1nnc(-c2cc3ccccc3cc2O)s1	ATCC 2091	-	125 µg/mL
CCCCCOc1ccc(-c2ccc(-c3ccc(C(=O)N[C@H]4CCCNC(=O)[C@@H]5C[C@H](N)CN5C(=O)[C@H](CCCN)NC(=O)[C@H](CCc5ccc(O)cc5)NC(=O)[C@@H]5C[C@@H](O)CN5C(=O)[C@H]([C@@H](C)O)NC4=O)cc3)cc2)cc1	ATCC 38247	-	0.39 µg/mL